Tested on: Mtb
Assay: PK-PD indices from plasma and lung PK and MIC
Type: in vivo, mice
[1] = 25 mg/kg single dose PK, 24 h period
[2] = 25 mg/kg, PK parameters derived from 50 mg/kg

For `O=[N+]([O-])c1cn2c(n1)OC[C@@H](NCc1ccc(OC(F)(F)F)c(Cl)c1)C2` [NI-135], the “Lung AUC/MIC, total concentration” value (25 mg/kg single dose PK) was 620, the “Lung Cmax/MIC, total concentration” value (25 mg/kg single dose PK) was 183 and the “Plasma AUC/MIC, total concentration” value (25 mg/kg single dose PK) was 160. For the same molecule, the “Plasma fAUC/MIC, free concentration” value (25 mg/kg single dose PK) was 13.3, the “Plasma fCmax/MIC, free concentration” value (25 mg/kg single dose PK) was 3.3 and the “Lung %T>MIC, total concentration” value [1] was 95%. For the same molecule, the “Plasma %T>MIC, total concentration” value [1] was 66% and the “Plasma fT>MIC, free concentration” value [1] was 16%.

With `O=[N+]([O-])c1cn2c(n1)OC[C@@H](NCc1ccc(OC(F)(F)F)c(F)c1)C2` [NI-136] the “Lung AUC/MIC, total concentration” value (25 mg/kg single dose PK) was 1327, the “Lung Cmax/MIC, total concentration” value (25 mg/kg single dose PK) was 240 and the “Plasma AUC/MIC, total concentration” value (25 mg/kg single dose PK) was 357. For the same molecule, the “Plasma fAUC/MIC, free concentration” value (25 mg/kg single dose PK) was 60, the “Plasma fCmax/MIC, free concentration” value (25 mg/kg single dose PK) was 10 and the “Lung %T>MIC, total concentration” value [1] was 89%. The “Plasma %T>MIC, total concentration” value [1] was 65% and the “Plasma fT>MIC, free concentration” value [1] was 49%.

`CC[C@H]1Oc2nc([N+](=O)[O-])cn2C[C@@H]1NCc1ccc(OC(F)(F)F)cc1` [NI-182] was tested, and the “Lung AUC/MIC, total concentration” value (25 mg/kg single dose PK) was 3660, the “Lung Cmax/MIC, total concentration” value (25 mg/kg single dose PK) was 570 and the “Plasma AUC/MIC, total concentration” value (25 mg/kg single dose PK) was 1125. The “Plasma fAUC/MIC, free concentration” value (25 mg/kg single dose PK) was 100, the “Plasma fCmax/MIC, free concentration” value (25 mg/kg single dose PK) was 15 and the “Lung %T>MIC, total concentration” value [1] was 75%. The “Plasma %T>MIC, total concentration” value [1] was 66% and the “Plasma fT>MIC, free concentration” value [1] was 61%.

With `CC[C@H]1Oc2nc([N+](=O)[O-])cn2C[C@@H]1NCc1ccc(-c2ccc(OC(F)(F)F)cc2)cc1` [NI-297] the “Lung AUC/MIC, total concentration” value (25 mg/kg single dose PK) was 11670, the “Lung Cmax/MIC, total concentration” value (25 mg/kg single dose PK) was 815 and the “Plasma AUC/MIC, total concentration” value (25 mg/kg single dose PK) was 4955. The “Plasma fAUC/MIC, free concentration” value (25 mg/kg single dose PK) was 90, the “Plasma fCmax/MIC, free concentration” value (25 mg/kg single dose PK) was 5.0 and the “Lung %T>MIC, total concentration” value [1] was 100%. For the same molecule, the “Plasma %T>MIC, total concentration” value [1] was 100% and the “Plasma fT>MIC, free concentration” value [1] was 98%.

`O=C(CO[C@@H]1COc2nc([N+](=O)[O-])cn2C1)N1CCN(c2ccc(OC(F)(F)F)cc2)CC1` [NI-622] was tested, and the “Lung %T>MIC, total concentration” value [2] was 64%, the “Lung AUC/MIC, total concentration” value [2] was 198 and the “Lung Cmax/MIC, total concentration” value [2] was 28. For the same molecule, the “Plasma %T>MIC, total concentration” value [2] was 65%, the “Plasma AUC/MIC, total concentration” value [2] was 301 and the “Plasma fAUC/MIC, free concentration” value [2] was 8.9. For the same molecule, the “Plasma fCmax/MIC, free concentration” value [2] was 1.1 and the “Plasma fT>MIC, free concentration” value [2] was 17%.

With `O=C(CO[C@@H]1COc2nc([N+](=O)[O-])cn2C1)N1CCN(c2ccc(C(F)(F)F)cn2)CC1` [NI-644] the “Lung %T>MIC, total concentration” value [2] was 84%, the “Lung AUC/MIC, total concentration” value [2] was 211 and the “Lung Cmax/MIC, total concentration” value [2] was 42. The “Plasma %T>MIC, total concentration” value [2] was 93%, the “Plasma AUC/MIC, total concentration” value [2] was 498 and the “Plasma fAUC/MIC, free concentration” value [2] was 50. For the same molecule, the “Plasma fCmax/MIC, free concentration” value [2] was 8.9 and the “Plasma fT>MIC, free concentration” value [2] was 53%.

With `O=[N+]([O-])c1cn2c(n1)OC[C@@H](OCc1ccc(OC(F)(F)F)cc1)C2` [PA-824, (6S)-2-nitro-6-{[4-(trifluoromethoxy)benzyl]oxy}-6,7-dihydro-5H-imidazo[2,1-b][1, 3]oxazine, reference compound] the “Lung AUC/MIC, total concentration” value (25 mg/kg single dose PK) was 466, the “Lung Cmax/MIC, total concentration” value (25 mg/kg single dose PK) was 59 and the “Plasma AUC/MIC, total concentration” value (25 mg/kg single dose PK) was 170. For the same molecule, the “Plasma fAUC/MIC, free concentration” value (25 mg/kg single dose PK) was 17, the “Plasma fCmax/MIC, free concentration” value (25 mg/kg single dose PK) was 2.0 and the “Lung %T>MIC, total concentration” value [1] was 96%. For the same molecule, the “Plasma %T>MIC, total concentration” value [1] was 66% and the “Plasma fT>MIC, free concentration” value [1] was 37%.

Reference: PMC4139342, “Pharmacokinetics-Pharmacodynamics Analysis of Bicyclic 4-Nitroimidazole Analogs in a Murine Model of Tuberculosis” (PLoS ONE, 2014)
